Pooled drug test results. Numbers come from NIAID ChemDB, via PubChem.

Shared fields: whole-cell or culture tests; species: Mycobacterium tuberculosis

Two numbers with a dash give a range or band. A number after MIC or MFC names an inhibition level or a share of isolates. MIC bound: limit read from a one-dose screen. Rows are shuffled and stem from different studies. An empty or dashed field is not shown. Inhibition is in % at the dose shown (toxicity tests: loss of growth or viability).

smiles	strain or isolate	read by	conditions	endpoint	dose	result
COc1cccc2c1C(=O)c1c(O)c3c(c(O)c1C2=O)C[C@@](O)(/C(C)=N/NC(=O)c1cccc([N+](=O)[O-])c1)C[C@H]3O[C@H]1CC(N)[C@H](O)[C@H](C)O1	EMB-R			MIC		12.5 µg/mL
CCOC(=O)/C=C/c1ccc(OC)cc1	H37Ra	resazurin		MIC		485 µM
COC1=CC23CCCN2CCc2cc4c(cc2C3C1O)OCO4	H37Rv	BACTEC		MIC bound		>12.5 µg/mL
COC(=O)CCC(=O)SCC1CS1	H37Rv			MIC		1.56–3.125 µg/mL
COC(=O)C1=C/N(C2CCCCC2)C(=O)c2ccccc2/C(c2ccccc2)=C\1C(=O)OC	H37Rv	BACTEC		inhibition	12.5 µg/mL	8%
CO[C@H]1/C=C/O[C@@]2(C)Oc3c(C)c(O)c4c(O)c(cc(O)c4c3C2=O)NC(=O)/C(C)=C\C=C\[C@H](C)[C@H](O)[C@@H](C)[C@@H](O)[C@@H](C)[C@H](OC(C)=O)[C@@H]1C	SOCCI I			MIC		0.02 µg/mL
COC(=O)C(O)(C(=O)OC)C1=C(N)C(=O)c2ccccc2C1=O	H37Rv	resazurin		MIC bound		>6.25 µg/mL
CCCC(=O)OCC(S)CS	H37Rv			MIC		25 µg/mL
O=C(NNC(=O)c1ccncc1)Nc1ccc(F)c(Cl)c1	My 331/88	broth dilution	21 d	MIC100		125 µM
O=C1N(c2nncs2)CCN1[N+](=O)[O-]	H37Rv	BACTEC		inhibition	12.5 µg/mL	99%
CN(CNC(=O)c1cnccn1)Cc1ccccc1	PZA-resistant			MIC		100 µg/mL
[CH3][Sn]([CH3])([Cl])[Br].c1cnc2c(c1)ccc1cccnc12	H37Rv	BACTEC		MIC		12.5 µg/mL
O=C(NCN1CCOCC1)c1cnccn1	PZA-resistant			MIC		100 µg/mL
Nc1ccc(C(=O)O)c(O)c1	Clinical isolate 11			MIC		>100 µg/mL
O=C(NC1C(=O)C(Cl)C1c1ccccc1)c1sc2ccc(Oc3ccccc3)cc2c1Cl	H37Rv			inhibition	6.25 µg/mL	4%
CN1CCN(CNC(=O)c2cnccn2)CC1	ATCC 35822			MIC		100 µg/mL
CO[C@H]1/C=C/O[C@@]2(C)Oc3c(C)c(O)c4c(O)c(cc(OCC(=O)N5C(C)CCC5C)c4c3C2=O)NC(=O)/C(C)=C\C=C\[C@H](C)[C@H](O)[C@@H](C)[C@@H](O)[C@@H](C)[C@H](OC(C)=O)[C@@H]1C	H37Rv			MIC		0.37 µg/mL
O=C(NCN1CCNCC1)c1cnccn1	MS6210			MIC		33 µg/mL
O=C(Cc1ccc(O)cc1)N1COC(c2sc3ccc(Oc4ccccc4)cc3c2Cl)=N1	H37Rv			inhibition	6.25 µg/mL	4%
COc1ccc2ncc(COC(C)=O)c(COC(C)=O)c2c1	H37Rv	BACTEC		MIC bound		>12.5 µg/mL
CCN(C)C(=O)COc1cc2c(O)c3c(O)c(C)c4c(c13)C(=O)[C@@](C)(O/C=C/[C@H](OC)[C@@H](C)[C@@H](OC(C)=O)[C@H](C)[C@H](O)[C@H](C)[C@@H](O)[C@@H](C)/C=C/C=C(/C)C(=O)N2)O4	H37Rv			MIC		0.37 µg/mL
C[C@@H]1CN(c2c(F)c(N)c3c(=O)c(C(=O)O)cn(C4CC4)c3c2F)C[C@H](C)N1	90-0145 (drug-susceptible)			MIC		0.2 µg/mL
CC[C@@H](CC[C@@H](C)[C@H]1CCC2C3C(=O)C=C4C[C@@H](O)CC[C@]4(C)C3CC[C@@]21C)C(C)C	H37Rv (ATCC 27294)			MIC		128 µg/mL
O=C(Cc1ccccc1)N1COC(c2sc3ccc(Oc4ccccc4)cc3c2Cl)=N1	H37Rv			inhibition	6.25 µg/mL	0%
O=C(CCCCCCCC(=O)Nc1cc(C2=NCCN2)cc(C2=NCCN2)c1)Nc1cc(C2=NCCN2)cc(C2=NCCN2)c1	H37Rv	resazurin		MIC bound		>6.25 µg/mL
CO[C@H]1/C=C/O[C@@]2(C)Oc3c(C)c(O)c4c(O)c(c(/C=N/N5CCN(C)CC5)c(O)c4c3C2=O)NC(=O)/C(C)=C\C=C\[C@H](C)[C@H](O)[C@@H](C)[C@@H](O)[C@@H](C)[C@H](OC(C)=O)[C@@H]1C	11 isolates (MDR)			MIC50		>32 µg/mL
CC1=NN(c2ccc(/C=C/c3ccc(NC(=O)Nc4ccc(/C=C/c5ccc(N6N=C(C)C(N=Nc7ccccc7C(=O)O)C6=O)cc5S(=O)(=O)[O-])c(S(=O)(=O)[O-])c4)cc3S(=O)(=O)[O-])c(S(=O)(=O)[O-])c2)C(=O)C1N=Nc1ccccc1C(=O)O.[Na+].[Na+].[Na+].[Na+]	H37Rv	BACTEC		MIC bound		>12.8 µg/mL
NNC(=O)c1ccncc1	Clinical isolate 5			MIC		0.1 µg/mL
CO[C@H]1/C=C/O[C@@]2(C)Oc3c(C)c(O)c4c(O)c(c(/C=N/N5CCN(C)CC5)c(O)c4c3C2=O)NC(=O)/C(C)=C\C=C\[C@H](C)[C@H](O)[C@@H](C)[C@@H](O)[C@@H](C)[C@H](OC(C)=O)[C@@H]1C	M103I			MIC		0.007 µg/mL
CCCCCc1ccc(NC(=O)NNC(=O)c2ccncc2)cc1	My 331/88	broth dilution	21 d	MIC100		62.5 µM
CC[C@@H](CC[C@@H](C)[C@H]1CCC2C3C[C@@H](O)C4=CC(=O)CC[C@]4(C)C3CC[C@@]21C)C(C)C	H37Rv (ATCC 27294)			MIC		2 µg/mL
COC(=O)c1nc(-c2ccc3c(n2)C(=O)C(N)=C(OC)C3=O)c(N)c(-c2ccc(OC)c(OC)c2O)c1C	H37Rv	BACTEC		MIC bound		>12.8 µg/mL
Cc1cnc(C(=O)NCN2CCCC2)cn1	PZA-susceptible			MIC		100 µg/mL
NC[C@H]1O[C@H](O[C@H]2[C@H](O)[C@@H](O[C@H]3O[C@H](CO)[C@@H](O)[C@H](N)[C@H]3O)[C@H](N)C[C@@H]2N)[C@H](O)[C@@H](O)[C@@H]1O	90-0201 (drug-susceptible)			MIC		2 µg/mL
CO[C@H]1/C=C/O[C@@]2(C)Oc3c(C)c(O)c4c(O)c(cc(OCC(=O)Nc5ccc(Br)cc5)c4c3C2=O)NC(=O)/C(C)=C\C=C\[C@H](C)[C@H](O)[C@@H](C)[C@@H](O)[C@@H](C)[C@H](OC(C)=O)[C@@H]1C	H37Rv			MIC		0.005 µg/mL
Cc1cc(NC(=O)c2ccc(N=Nc3c(S(=O)(=O)O)cc4cc(NC(=O)c5ccc(N)cc5)ccc4c3O)cc2)ccc1N=Nc1ccc2cc(S(=O)(=O)O)cc(S(=O)(=O)O)c2c1	H37Rv	BACTEC		MIC bound		>12.5 µg/mL
CN(C)c1ccc(CC(=O)N2COC(c3sc4ccc(Oc5ccccc5)cc4c3Cl)=N2)cc1	H37Rv			inhibition	6.25 µg/mL	4%
BrN=C1C=CC(=NBr)C=C1	H37Rv	BACTEC		MIC bound		>12.5 µg/mL
NNC(=O)c1ccncc1	H37Rv			MIC		0.02 µg/mL
Nc1nc(N)c2nc3c4ccccc4c4ccccc4c3nc2n1	H37Rv	BACTEC		MIC bound		≤12.5 µg/mL
CC1COc2c(N3CCN(C)CC3)c(F)cc3c(=O)c(C(=O)O)cn1c23	187 isolates			MIC90		1 µg/mL
CN[C@@H]1[C@H](O[C@H]2[C@H](O[C@H]3[C@H](O)[C@@H](O)[C@H](N=C(N)N)[C@@H](O)[C@@H]3N=C(N)N)O[C@@H](C)[C@]2(O)C=O)O[C@@H](CO)[C@H](O)[C@H]1O	Clinical isolate 12			MIC		50 µg/mL
COc1cccc(/C=N/NC(=O)c2sc3ccc(Oc4ccccc4)cc3c2Cl)c1	H37Rv			inhibition	6.25 µg/mL	0%
CC1(C)CC[C@]2(C(=O)O)CCC3C(=CCC4[C@@]3(C)CCC3C(C)(C)[C@H](O)CC[C@@]34C)C2C1	H37Rv (ATCC 27294)			MIC		16 µg/mL
CCN(CC)CNC(=O)c1cnccn1	ATCC35801			MIC		2 µg/mL
O=C(NC1=C(Cl)C(=O)c2ccccc2C1=O)C(=O)c1c(O)c2ccccc2oc1=O	H37Rv	BACTEC		MIC bound		>12.5 µg/mL
CCCN(CCC)CNC(=O)c1cnccn1	ATCC 35822			MIC		100 µg/mL
Cn1cc(NC(=O)c2cc(NC(=O)CCCCCCCCCC(=O)Nc3cc(C(=O)Nc4cc(C(=O)NCCC(N)=[NH2+])n(C)c4)n(C)c3)cn2C)cc1C(=O)NCCC(N)=[NH2+]	H37Rv	BACTEC		MIC bound		≤12.5 µg/mL
N[C@@H]1CONC1=O	H37Rv			MIC		25 µg/mL
CC(C)c1ccc(NC(=O)NNC(=O)c2ccncc2)cc1	My 331/88	broth dilution	14 d	MIC100		16 µM
CO[C@H]1/C=C/O[C@@]2(C)Oc3c(C)c(O)c4c(O)c(cc(OCC(=O)N(C)C(C)(C)C)c4c3C2=O)NC(=O)/C(C)=C\C=C\[C@H](C)[C@H](O)[C@@H](C)[C@@H](O)[C@@H](C)[C@H](OC(C)=O)[C@@H]1C	H37Rv			MIC		0.37 µg/mL
CCCCCCCCCSC(=S)N(C)NC(=O)c1ccccn1	H37Rv	BACTEC		MIC		≥128 µg/mL
O=C(N/N=C/c1cccc(Br)c1)c1sc2ccc(Oc3ccccc3)cc2c1Cl	H37Rv			inhibition	6.25 µg/mL	0%
CCCCCCCc1ccc(NC(=O)NNC(=O)c2ccncc2)cc1	My 331/88	broth dilution	21 d	MIC100		32 µM
COc1ccc(C2C(Cl)C(=O)C2NC(=O)c2sc3ccc(Oc4ccccc4)cc3c2Cl)c(OC)c1OC	H37Rv			inhibition	6.25 µg/mL	10%
O=C1CC(=O)OCCOCCOCCO1	H37Rv	BACTEC		inhibition	12.5 µg/mL	-1%
O=C(NNC(=O)c1ccncc1)Nc1cc(Cl)cc(Cl)c1	My 331/88	broth dilution	21 d	MIC100		62.5 µM
CCCCOC(=O)SCC1CS1	H37Rv			MIC		3.125 µg/mL
O=C(NNC(=O)c1ccncc1)Nc1ccc(C(F)(F)F)cc1	My 331/88	broth dilution	21 d	MIC100		62.5 µM
O=C(O)C1C2OC3C(OC(=O)C31)C2Br	H37Rv	BACTEC		inhibition	12.5 µg/mL	0%
CCCCN(CCCC)CNC(=O)c1cnc(C)cn1	PZA-susceptible			MIC		100 µg/mL
Cc1csc([C@](C)(O)c2nnc(Nc3ccn(Cc4c(F)cccc4F)n3)s2)n1	WILD TYPE			MIC		0.39 µg/mL
O=C(NNC(=O)c1ccncc1)Nc1c(Cl)cc(Cl)cc1Cl	My 331/88	broth dilution	21 d	MIC100		4 µM
CCOC(=O)SCC1CS1	H37Rv			MIC		1.56 µg/mL
COc1ccc(Nc2nnc(-c3ccncc3)o2)cc1	My 331/88	broth dilution	21 d	MIC100		>125 µM
SCC1CS1	H37Rv			MIC		12.5 µg/mL
NCC[C@H](O)C(=O)N[C@@H]1C[C@H](N)[C@@H](O[C@H]2O[C@H](CN)[C@@H](O)[C@H](O)[C@H]2O)[C@H](O)[C@H]1O[C@H]1O[C@H](CO)[C@@H](O)[C@H](N)[C@H]1O	90-0145 (drug-susceptible)			MIC		0.5 µg/mL
C=C[C@]1(C)CC=C2C(CCC3[C@](C)(CO)CCC[C@@]23C)C1	H37Rv (ATCC 27294)			MIC		16 µg/mL
O=C1C(Cl)=C(Nc2ccc(S(=O)(=O)c3ccc(NC4=C(Cl)C(=O)c5ccccc5C4=O)cc3)cc2)C(=O)c2ccccc21	H37Rv	BACTEC		MIC bound		>12.5 µg/mL
NNC(=O)c1ccncc1	22 isolates (rifampicin isoniazid-susceptible)			MIC50		0.06 µg/mL
CO[C@H]1/C=C/O[C@@]2(C)Oc3c(C)c(O)c4c(O)c(c(/C=N/N5CCN(C)CC5)c(O)c4c3C2=O)NC(=O)/C(C)=C\C=C\[C@H](C)[C@H](O)[C@@H](C)[C@@H](O)[C@@H](C)[C@H](OC(C)=O)[C@@H]1C	K2			MIC		1 µg/mL
COC1OC2COC(c3ccccc3)OC2C2N=C(N)N([N+](=O)[O-])C12OS(C)(=O)=O	H37Rv	BACTEC		MIC bound		>12.5 µg/mL
COc1ccc(/C=N/NC(=O)c2sc3ccc(Oc4ccccc4)cc3c2Cl)c(OC)c1OC	H37Rv			inhibition	6.25 µg/mL	4%
NNC(=O)c1ccncc1	Pan-susceptible clinical isolate 3			MIC		0.06 µg/mL

A second listing of 6 rows from above:

smiles	strain or isolate	read by	conditions	endpoint	dose	result
O=C(NNC(=O)c1ccncc1)Nc1ccc(C(F)(F)F)cc1	My 331/88	broth dilution	21 d	MIC100		62.5 µM
CO[C@H]1/C=C/O[C@@]2(C)Oc3c(C)c(O)c4c(O)c(c(/C=N/N5CCN(C)CC5)c(O)c4c3C2=O)NC(=O)/C(C)=C\C=C\[C@H](C)[C@H](O)[C@@H](C)[C@@H](O)[C@@H](C)[C@H](OC(C)=O)[C@@H]1C	M103I			MIC		0.007 µg/mL
CCCCCCCc1ccc(NC(=O)NNC(=O)c2ccncc2)cc1	My 331/88	broth dilution	21 d	MIC100		32 µM
CC[C@@H](CC[C@@H](C)[C@H]1CCC2C3C[C@@H](O)C4=CC(=O)CC[C@]4(C)C3CC[C@@]21C)C(C)C	H37Rv (ATCC 27294)			MIC		2 µg/mL
COc1ccc(Nc2nnc(-c3ccncc3)o2)cc1	My 331/88	broth dilution	21 d	MIC100		>125 µM
CN1CCN(CNC(=O)c2cnccn2)CC1	ATCC 35822			MIC		100 µg/mL